Sequence variants of PSTVd loop 15 after infection

Values reported by Wu et al. 2024 (doi:10.1371/journal.ppat.1012142).

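A pool of all variants was put on leaves of three Nicotiana benthamiana plants. Progeny were sequenced from the inoculated region (day 5), the margin of the inoculated leaf (day 10) and systemic leaves (day 12).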

The pool varies loop 15 of the PSTVd intermediate strain in the pattern GGAAACCGNNNNNNC; wild type is GGAAACCGCUACUAC (upper and lower strand joined, each 5' to 3', the first 7 letters being the upper strand, closing pairs included).

Values are reads per thousand in the sample; higher means more abundant, 0 means not found.
Each value is the mean of three plants.
"Pool" is the share in the plasmid pool used as inoculum, on the same scale.
The inoculated region was read from the minus strand, the other sites from the plus strand.
IR is the inoculated region, LM the leaf margin, Sys the systemic leaves.
Wild type was 33.9 per thousand in the pool and the most common sequence in every sample (inoculated region 202, 200, 159; leaf margin 724, 746, 710; systemic leaves 856, 883, 880).
With 43,870-66,106 reads a sample, very low values are single reads.
The authors trace changes outside the varied positions to PCR and sequencing errors or to mutation in the plant; presence does not show that a variant is infectious alone.

With GGAAACCGCCGUCGC (pool 0.224) the assay gave IR 0.0613; LM 0.00668; Sys 0. GGAAACCGAUGAGCC (pool 0.160) read IR 0.0881; LM 0.00539; Sys 0. GGAAACCGUCACAGC (pool 0.288) gave IR 0.0685; LM 0.00668; Sys 0. GGAAACCGGUUAUCC (pool 0.336) read IR 0.103; LM 0.0208; Sys 0. GGAAACCGUUUCUAC (pool 0.224) gave IR 0.305; LM 0.121; Sys 0.0282. GGAAACCGACUCUCC (pool 0.208) gave IR 0.136; LM 0.0128; Sys 0. With GGAAACCGGAGGCAC (pool 0.144) the assay gave IR 0.0958; LM 0.0121; Sys 0.00537. For GGAAACCGAAUCCAC (pool 0.192) the result was IR 0.0788; LM 0.0128; Sys 0. For GGAAACCGGAUAUUC (pool 0.272) the result was IR 0.0959; LM 0.0208; Sys 0.

GGAAACCGUUUGCUC (pool 0.240) gave IR 0.104; LM 0.0215; Sys 0. GGAAACCGUCGUAAC (pool 0.192) read IR 0.141; LM 0; Sys 0.00537. With GGAAACCGCGAAUGC (pool 0.256) the assay gave IR 0.451; LM 0.0906; Sys 0.0714. GGAAACCGUUGUCUC (pool 0.192) read IR 0.113; LM 0; Sys 0. GGAAACCGUAGUCAC (pool 0.224) read IR 0.260; LM 0.128; Sys 0.0107. With GGAAACCGGUUCAUC (pool 0.224) the assay gave IR 0.102; LM 0.0141; Sys 0. GGAAACCGAUUCGCC (pool 0.192) gave IR 0.121; LM 0.0141; Sys 0. For GGAAACCGCCCAGCC (pool 0.224) the result was IR 0.123; LM 0.0195; Sys 0. For GGAAACCGAGCCCAC (pool 0.224) the result was IR 0.161; LM 0.00668; Sys 0.

With GGAAACCGAAUUCCC (pool 0.320) the assay gave IR 0.121; LM 0.0134; Sys 0. GGAAACCGACCAGGC (pool 0.288) read IR 0.115; LM 0; Sys 0. GGAAACCGCAGAAUC (pool 0.176) read IR 0.0828; LM 0.0195; Sys 0. GGAAACCGUUCUUUC (pool 0.224) read IR 0.403; LM 0.145; Sys 0.0335. GGAAACCGUACCACC (pool 0.192) read IR 0.0750; LM 0.00539; Sys 0. GGAAACCGCGGUUAC (pool 0.144) read IR 0.340; LM 0.131; Sys 0.0284. With GGAAACCGUUGUGGC (pool 0.192) the assay gave IR 0.0856; LM 0; Sys 0. For GGAAACCGUUGGACC (pool 0.192) the result was IR 0.0507; LM 0.0134; Sys 0.00760. GGAAACCGUUUCAAC (pool 0.240) read IR 0.118; LM 0; Sys 0.

Extract of 2 entries:

GGAAACCGUCACAGC (pool 0.288) read IR 0.0685; LM 0.00668; Sys 0.
GGAAACCGUUUCAAC (pool 0.240) read IR 0.118; LM 0; Sys 0.